# Measured values published in PubChem BioAssay AID488890 (Southern Research Specialized Biocontainment Screening …, 2010).
# The other results are listed elsewhere or left out. Records with an inconclusive call do not appear. How the calls were made is not given here. Some structures show a salt or complex split into parts, the way the source records it.
# Experiment: growth inhibition of non-replicating M. tuberculosis (AID 488890);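 further: plate controls were DMSO cells for no effect and high antibiotic wells for full effect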
# Settings: Mycobacterium tuberculosis non-replicating, at 25 µM, stronger effect = higher value
row,Compound,inhibition [%]
1,Cc1ccc(C)c(NP(C)(=O)Oc2ccccc2)c1 (configuration not stated),-0.6
2,Cc1cc(C)cc(OP(C)(=O)Nc2ccccn2)c1 (configuration not stated),3.91
3,CP(=O)(Nc1cccc(Br)c1)Oc1ccccc1 (configuration not stated),11.3
4,COc1ccccc1OP(C)(=O)Nc1cccc(Br)c1 (configuration not stated),-6.39
5,CCOC(=O)c1ccc(NP(C)(=O)Oc2cc(C)cc(C)c2)cc1 (configuration not stated),35.3
6,Cc1cc(C)cc(OP(C)(=O)Nc2ccc(C)cc2C)c1 (configuration not stated),15.8
7,CC1=NCCc2c1[nH]c1ccccc21.O=[N+]([O-])c1cc([N+](=O)[O-])c(O)c([N+](=O)[O-])c1,2.69
8,O=C(O)c1cccc(Nc2c([N+](=O)[O-])cc([N+](=O)[O-])cc2[N+](=O)[O-])c1,5.8
9,COc1ccccc1OP(C)(=O)Nc1c(C)cccc1C (configuration not stated),-1.1
10,CN1CCCCC1COC(=O)C1(O)c2ccccc2CCc2ccccc21 (configuration not stated),8.87
11,CCCOc1ccc(NP(C)(=O)Oc2ccc(Cl)cc2)cc1 (configuration not stated),34
12,CP(=O)(Nc1ccc(SC(F)(F)F)cc1)Oc1ccccc1 (configuration not stated),30.9
13,CCOC(=O)C(CC)C1=NC(C)(C)Cc2ccccc21.O=[N+]([O-])c1cc([N+](=O)[O-])c(O)c([N+](=O)[O-])c1 (configuration not stated),-2.89
14,CC1=C2N=C(C=C3N=C(C(C)=C4[N-][C@@](C)([C@@H]5N=C1[C@](C)(CCC(=O)NC[C@@H](C)OP(=O)([O-])O[C@H]1[C@@H](O)[C@@H](n6cnc7cc(C)c(C)cc76)O[C@@H]1CO)[C@H]5CC(N)=O)[C@@](C)(CC(N)=O)[C@@H]4CCC(N)=O)[C@@](C)(CC(N)=O)[C@@H]3CCC(N)=O)C(C)(C)[C@@H]2CCC(N)=O.[C-]#N.[Co+3],72.3
15,O=[N+]([O-])c1cc([N+](=O)[O-])c(Nc2nnnn2CCO)c([N+](=O)[O-])c1,-7.9
16,Cc1nc2ccc3ccccc3c2s1.O=[N+]([O-])c1cc([N+](=O)[O-])c(O)c([N+](=O)[O-])c1,20.9
17,O=[N+]([O-])c1cc([N+](=O)[O-])c(-n2nnc3ccccc32)c([N+](=O)[O-])c1,0.27
18,CCOC(=O)c1ccc(NP(C)(=O)Oc2ccc(OC)cc2)cc1 (configuration not stated),28.7
19,O=[N+]([O-])c1cc([N+](=O)[O-])c(O)c([N+](=O)[O-])c1.c1ccc(Oc2ccncc2)cc1,-6.89
20,CCOP(C)(=S)SCC(=O)NC(C)C(=O)O (configuration not stated),-2.22
21,CP(=O)(Nc1ccccn1)Oc1ccc(Cl)cc1 (configuration not stated),-11.4
22,CP(=O)(Oc1ccccc1)OC(c1ccccc1)C(F)(F)F (configuration not stated),0.58

row,Compound,inhibition [%]
1,Cc1cccc(C)c1OP(C)(=O)Nc1ccc(SC(F)(F)F)cc1 (configuration not stated),32
2,CP(=O)(Nc1ccc(SC(F)(F)F)cc1)Oc1ccc(Cl)cc1 (configuration not stated),22
3,Cc1cc(C)cc(OP(C)(=O)Nc2ccc(SC(F)(F)F)cc2)c1 (configuration not stated),22.9
4,CP(=O)(NC(=O)Nc1ccccc1)Oc1ccccc1 (configuration not stated),8.44
5,CCc1ccc(OP(C)(=O)N2CCN(c3ccc([N+](=O)[O-])cc3)CC2)cc1 (configuration not stated),38.5
6,CP(=S)(Nn1cnnc1)Oc1ccccc1 (configuration not stated),-0.47
7,CP(=O)(Nc1ccccc1Br)Oc1ccccc1 (configuration not stated),9.43
8,COc1ccccc1OP(C)(=O)Nc1ccccc1 (configuration not stated),5.61
9,Cc1ccc(NP(C)(=O)Oc2ccccc2)c(C)c1 (configuration not stated),8.85
10,COc1ccccc1OP(C)(=O)Nc1ccc(C)cc1 (configuration not stated),4.98
11,CCOC(=O)c1ccc(NP(C)(=O)Oc2ccccc2)cc1 (configuration not stated),-17.6
12,Cc1cc(C)cc(OP(C)(N)=O)c1 (configuration not stated),18.8
13,COc1ccc(OP(C)(=O)Nc2cccc(F)c2)cc1 (configuration not stated),-12.7
14,COc1ccccc1OP(C)(=O)Nc1cc(Cl)ccc1C (configuration not stated),-5.23
15,O=[N+]([O-])c1cc([N+](=O)[O-])c(Nc2cccnc2)c([N+](=O)[O-])c1,35.6
16,O=[N+]([O-])c1ccc2c(c1)C=Nc1ccccc1O2,73.1
17,Cc1cccc(C)c1OP(C)(N)=O (configuration not stated),-8.97
18,CC(C)(C)c1ccc(OP(C)(=O)Nc2ccc(SC(F)(F)F)cc2)cc1 (configuration not stated),10.2
19,CCN(CC)CCCOC(=O)C(O)(c1ccccc1)c1ccccc1,-2.3
20,Cc1c(NP(C)(=O)Oc2ccc(C(C)C)cc2)c(=O)n(-c2ccccc2)n1C (configuration not stated),-0.53
21,COc1ccccc1OP(C)(=O)Nc1ccc(C)cc1C (configuration not stated),59.6
22,CP(=O)(Nc1ccccn1)Oc1ccccc1 (configuration not stated),-3.93

row,Compound,inhibition [%]
1,CCc1ccc(OP(C)(=O)O)cc1,-4.6
2,COc1ccccc1OP(C)(=O)Nc1ccc(Br)cc1 (configuration not stated),14.2
3,COc1ccc(OP(C)(=O)Nc2ccccn2)cc1 (configuration not stated),11.2
4,CN(C)CCOC(=O)C(O)(c1ccccc1)C1CCCC1 (configuration not stated),8.11
5,Cc1nc2ccc3ccccc3c2o1.O=[N+]([O-])c1cc([N+](=O)[O-])c(O)c([N+](=O)[O-])c1,13.2
6,CP(=O)(Nc1ccc(Cl)cc1Cl)Oc1ccccc1 (configuration not stated),23.8
7,CP(=O)(OCCOc1ccccc1)OCCOc1ccccc1,18.9
8,Cc1cc(C)cc(OP(C)(=O)Nc2cccc(C(F)(F)F)c2)c1 (configuration not stated),13.8
9,COc1ccccc1OP(C)(=O)Nc1ccc(C)c(C)c1 (configuration not stated),2.54
10,COc1ccc(OP(C)(=O)Nc2ccccc2Br)cc1 (configuration not stated),5.22
11,Nc1ccc2c(ccc3cccnc32)n1.O=[N+]([O-])c1cc([N+](=O)[O-])c(O)c([N+](=O)[O-])c1,23.9
12,CCOC(=O)c1ccc(NP(C)(=O)Oc2ccc(Cl)cc2)cc1 (configuration not stated),12.9
13,CP(=O)(OC12CC3CC(CC(C3)C1)C2)OC12CC3CC(CC(C3)C1)C2,22.4
14,COc1ccccc1OP(C)(=O)Nc1ccccc1Br (configuration not stated),10
15,CC(C)(C)c1ccc(OP(C)(=O)O)cc1,-5.35
16,CP(=O)(Nc1ccc(Cl)cc1)Oc1ccc(F)cc1 (configuration not stated),24.3
17,CN(C)C(=O)c1c([N+](=O)[O-])cc([N+](=O)[O-])cc1[N+](=O)[O-],51.4
18,COc1ccc(OP(C)(=O)Nc2ccc(Br)cc2)cc1 (configuration not stated),19.4
19,CCN(CC)CC(O)COC(=O)C(O)(c1ccccc1)C1CCCCC1 (configuration not stated),0.69
20,O=C(OCCCN1CCCC1)C(O)(c1ccccc1)C1CCCCC1 (configuration not stated),8.78
21,COc1ccccc1OP(C)(=O)Nc1c(C)n(C)n(-c2ccccc2)c1=O (configuration not stated),2.31
22,CCc1ccc(OP(C)(=O)Nc2cccnc2)cc1 (configuration not stated),-4.61

row,Compound,inhibition [%]
1,CP(=O)(Oc1ccccc1)N1CCOC1=O (configuration not stated),-6.11
2,CP(=O)(Nc1ccc2c(c1)OCCO2)Oc1ccccc1 (configuration not stated),2.11
3,Cc1ccccc1NP(C)(=O)Nc1ccccc1C,-2.57
4,CP(=O)(Nc1ccc(SC(F)(F)F)cc1)Oc1ccc(F)cc1 (configuration not stated),30.9
5,CCOP(C)(=S)SCC(=O)NC(C)(CC)C(=O)O (configuration not stated),-0.24
6,O=[N+]([O-])c1ccc(OP2(=O)COCCO2)cc1 (configuration not stated),0.28
7,O=[N+]([O-])c1cc([N+](=O)[O-])c(NCC2CCS(=O)(=O)C2)c([N+](=O)[O-])c1 (configuration not stated),74.3
8,COc1ccc(OP(C)(=O)Nc2cccc(Br)c2)cc1 (configuration not stated),9.71
9,CN(C)CCOC(=O)C(O)(c1ccccc1)C1CCCCC1 (configuration not stated),19.6
10,COc1ccc(NP(C)(=O)Oc2ccccc2OC)cc1 (configuration not stated),-7.92
11,CCN(CC)CCCOC(=O)C(O)(c1ccccc1)C1CCCCC1 (configuration not stated),-1.44
12,CP(=O)(Nc1ccccc1)Oc1ccc(F)cc1 (configuration not stated),-6.01
13,CCCCCOc1ccc(NP(C)(=O)Oc2ccc(Cl)cc2Cl)cc1 (configuration not stated),75.7
14,O=[N+]([O-])c1cc([N+](=O)[O-])c(OC2CCCCC2O)c([N+](=O)[O-])c1 (configuration not stated),30.9
15,CCOC(=O)c1ccc(NP(C)(=O)Oc2ccc(F)cc2)cc1 (configuration not stated),7.69
16,COc1ccc(OP(C)(=O)Nc2ccc(SC(F)(F)F)cc2)cc1 (configuration not stated),31.4
17,O=C(OC1CN2CCC1CC2)c1ccc([N+](=O)[O-])cc1 (configuration not stated),7.95
18,O=C(OCCN1CCN(CCOCc2ccccc2)CC1)C(O)(c1ccccc1)c1ccccc1,-13.3
19,COc1ccc2c(c1O)-c1c(O)c(OC)cc3c1[C@H](C2)[N+](C)(C)CC3.O=[N+]([O-])c1cc([N+](=O)[O-])c([O-])c([N+](=O)[O-])c1[O-],7.84
20,CP(=O)(Nc1ccccc1F)Oc1ccccc1 (configuration not stated),-1.95
21,CC(C)c1ccc(OP(C)(=O)Nc2ccc(SC(F)(F)F)cc2)cc1 (configuration not stated),45.8
